# Earlier results as cited in patent US20140234375A1, “Compositions and Methods for Eliciting an Immune Response to Escape Mutants of Targeted Therapies” (priority 2005, published 2014).
# Tested on: HIV-1 variants
# Details: HIV-1 variants under nevirapine therapy
smiles,measurement,value
"Cc1ccnc2c1NC(=O)c1cccnc1N2C1CC1 [Nevirapine, nevirapine]",time of therapy after which decreased susceptibility is evident,1 week
